Pooled drug test results. Numbers come from NIAID ChemDB, via PubChem.

MIC bound: limit read from a one-dose screen.

structure | dose | strain or isolate | measure | organism | test | cell line | target | method | result
CCCCSCCOCCOc1c(Cl)cc(Cl)c(Cl)c1Cl |  | H37Rv | MIC | Mycobacterium tuberculosis | culture |  |  |  | >100 µg/mL
CCO/N=C/c1ccc(OCCC2CCN(c3ccc(C)nn3)CC2)cc1 |  | 5426-CV26 (ICAM-1 receptor group 25) | EC50 | Rhinovirus | culture | KB |  | neutral red | >4.588 µM
CCCCC(CC)CNc1nnc(NC(=O)c2ccc(Cl)c(Cl)c2)s1 |  |  | IC50 | Human cytomegalovirus | target |  | Polymerase |  | >25 µM
O=C1OCCN(CCO)C1=O |  | H37Rv | MIC | Mycobacterium tuberculosis | culture |  |  |  | >100 µg/mL
Cc1cc(C)cc(-c2cncc(N3CCN(c4cnccn4)CC3)n2)c1 |  |  | IC50 | Cytomegalovirus | target |  | UL97 kinase |  | <100 µM
COC(=O)c1cccc(OC)c1-c1c(OC)cccc1C(=O)OC |  | H37Rv | MIC | Mycobacterium tuberculosis | culture |  |  |  | >100 µg/mL
Cc1nccc2c(C)c3c(cc12)c1ccccc1n3CCC1CO1 |  | H37Rv | MIC | Mycobacterium tuberculosis | culture | VERO |  | resazurin | 1.56 µg/mL
COc1cccc(-c2cncc(N3CCN(c4ccccc4OC)CC3)n2)c1 | 1 µM |  | inhibition | Cytomegalovirus | target |  | UL97 kinase |  | <50%
O=c1cc[nH]c(=S)[nH]1 |  | H37Rv | MIC | Mycobacterium tuberculosis | culture |  |  |  | >100 µg/mL
CC(=O)O[C@H]1[C@H](OC(C)=O)[C@H](OC(C)=O)CO[C@H]1Nn1c(=O)[nH]c2ccccc2c1=O | 6.25 µg/mL | H37Rv | inhibition | Mycobacterium tuberculosis | culture |  |  | BACTEC | 0%
O=C1c2cc(NCCO)c(NCCO)cc2C(=O)c2c(O)ccc(O)c21 |  | H37Rv | MIC | Mycobacterium tuberculosis | culture |  |  |  | >100 µg/mL
C/C(O)=C(\C=N\C(=S)Nc1cccc(C(F)(F)F)c1)C(=O)Nc1ccccc1C |  | H37Rv | MIC bound | Mycobacterium tuberculosis | culture |  |  | resazurin | >6.25 µg/mL
Nc1ccc(Cl)cc1C(=O)O |  | H37Rv | MIC | Mycobacterium tuberculosis | culture |  |  |  | >100 µg/mL
Cc1cc(C)c(S(=O)(=O)O)c(C)c1Nc1ccc(Nc2c(C)cc(C)c(S(=O)(=O)O)c2C)c2c1C(=O)c1ccccc1C2=O | 12.5 µg/mL | H37Rv | inhibition | Mycobacterium tuberculosis | culture |  |  | BACTEC | -5%
COc1cc(NCCCNc2c3ccc(Cl)cc3nc3ccc(OC)cc23)c2ncccc2c1 |  | H37Rv | MIC | Mycobacterium tuberculosis | culture |  |  |  | 25 µg/mL
CCCCCCCC/C=C/CCCCCCCC(=O)Nc1nnc(NCCc2cccs2)s1 |  |  | IC50 | Human cytomegalovirus | target |  | Polymerase |  | <25 µM
NC(Cc1ccc(Cl)cc1Cl)C(=O)O |  | H37Rv | MIC | Mycobacterium tuberculosis | culture |  |  |  | 12.5 µg/mL
C=CCOc1cc(NC(=S)c2ccoc2C)ccc1OC |  | H37Rv | MIC bound | Mycobacterium tuberculosis | culture |  |  | BACTEC | >12.5 µg/mL
CC(=O)c1cccc(-c2cncc(N3CCN(c4ccccn4)CC3)n2)c1 |  |  | IC50 | Cytomegalovirus | target |  | UL97 kinase |  | <10 µM
O=C(NCCO)C(=O)N/N=C/c1ccc([N+](=O)[O-])o1 |  | ETA-R | MIC | Mycobacterium tuberculosis | culture |  |  |  | 12.5 µg/mL
Oc1ccccc1C=NCCN=Cc1ccccc1O |  | H37Rv | MIC | Mycobacterium tuberculosis | culture |  |  |  | 50 µg/mL
CCCc1cc(=O)oc2c3c(c4c(c12)OC(C)(C)CC4)O[C@@H](C)[C@H](C)C3=O | 12.5 µg/mL | H37Rv | inhibition | Mycobacterium tuberculosis | culture |  |  | BACTEC | 49%
O=C(Nc1nnc(NCC2CCCCC2)s1)c1ccc(F)cc1F |  |  | IC50 | Human cytomegalovirus | target |  | Polymerase |  | >25 µM
COc1ccc2cc1-c1cc(ccc1O)C[C@H]1c3cc4c(cc3CCN1C)Oc1c(OC)cc3c(c1O4)[C@H](C2)N(C)CC3 | 12.5 µg/mL | H37Rv | inhibition | Mycobacterium tuberculosis | culture |  |  | BACTEC | 99%
CC(C)c1cc(C(C)C)c(C(=O)Nc2nnc(NC3CCN(Cc4ccccc4)CC3)s2)c(C(C)C)c1 |  |  | IC50 | Human cytomegalovirus | target |  | Polymerase |  | >25 µM
C[C@H](Cc1ccc(O)c(O)c1)[C@@H](C)Cc1ccc(O)c(O)c1 |  | CCC 125-2000 | MIC100 | Candida albicans | culture |  |  | broth dilution | 250 µg/mL
O=C1OC2(C(F)(F)F)Oc3ccccc3CN2C12CCCCC2 |  | H37Rv | MIC bound | Mycobacterium tuberculosis | culture |  |  | resazurin | >6.25 µg/mL
CC(C)(C)c1ccc(-c2cncc(N3CCN(c4cnccn4)CC3)n2)cc1 |  |  | IC50 | Cytomegalovirus | target |  | UL97 kinase |  | <100 µM
O=C(O)COc1cc(Cl)c(Cl)cc1Cl |  | H37Rv | MIC | Mycobacterium tuberculosis | culture |  |  |  | >100 µg/mL
COc1ccc(N2CCN(c3cncc(-c4cccc(C)c4)n3)CC2)cc1OC | 1 µM |  | inhibition | Cytomegalovirus | target |  | UL97 kinase |  | <50%
CC1(C)N=c2cc3c(cc2N1c1ccc(Cl)cc1)=Nc1ccccc1N3c1ccc(Cl)cc1 |  | RMP-R | MIC | Mycobacterium tuberculosis | culture |  |  |  | 0.8 µg/mL
O=[As]([O-])(O)c1ccc(O)c(N(CCO)CCO)c1.[Na+] |  | H37Rv | MIC | Mycobacterium tuberculosis | culture |  |  |  | >100 µg/mL
O=C1OS(=O)(=O)Nc2ccccc21 |  | H37Rv | MIC bound | Mycobacterium tuberculosis | culture |  |  | resazurin | >6.25 µg/mL
N#CC(c1ccccc1)c1ccccc1 |  | H37Rv | MIC | Mycobacterium tuberculosis | culture |  |  |  | 50 µg/mL
CCCCCCCC/C=C/CCCCCCCC(=O)Nc1nnc(NCCC(c2ccccc2)c2ccccc2)s1 |  |  | IC50 | Human cytomegalovirus | target |  | Polymerase |  | <25 µM
Cc1ccc(NC(=O)CNC2CCCCC2)cc1Cl |  | H37Rv | MIC bound | Mycobacterium tuberculosis | culture |  |  | BACTEC | >12.5 µg/mL
O=C(Nc1ccc(NC(=O)c2cccc(S(=O)(=O)[O-])c2)c2c1C(=O)c1ccccc1C2=O)c1cccc(S(=O)(=O)[O-])c1.[Na+].[Na+] |  | H37Rv | MIC | Mycobacterium tuberculosis | culture |  |  |  | >100 µg/mL
COc1cc2oc3c(c(=O)c2c(O)c1/C=C/C(C)C)C(C=C(C)C)Oc1cc(O)ccc1-3 |  | CS-R | MIC | Mycobacterium tuberculosis | culture |  |  |  | >12.5 µg/mL
C#CC[C@@H](C(=O)N[C@H](/C=C/C(=O)OCC)C[C@@H]1CCNC1=O)n1cccc(NC(=O)c2cc(C)on2)c1=O |  | Serotype 28 | EC50 | Rhinovirus | culture | H1-HELA |  | cytopathic effect / XTT | 0.098 µM
Nc1ccccc1-c1ccccn1 |  | H37Rv | MIC | Mycobacterium tuberculosis | culture |  |  |  | 50 µg/mL
Cn1c(=O)c2nc3sc4c(n3c2n(C)c1=O)C(=O)c1ccccc1C4=O | 12.5 µg/mL | H37Rv | inhibition | Mycobacterium tuberculosis | culture |  |  | BACTEC | 36%
COc1ccccc1C(=O)Nc1nnc(NCCC(c2ccccc2)c2ccccc2)s1 |  |  | IC50 | Human cytomegalovirus | target |  | Polymerase |  | >25 µM
CC(=O)ONC(=O)CSc1nn2cc(-c3ccccc3)nc2s1 |  | H37Rv | MIC bound | Mycobacterium tuberculosis | culture |  |  | BACTEC | >12.5 µg/mL
c1ccc(C2CCN(c3cncc(-c4csc5ccccc45)n3)CC2)cc1 | 10 µM |  | inhibition | Cytomegalovirus | target |  | UL97 kinase |  | >15%
Nc1cc([N+](=O)[O-])ccc1C(=O)O |  | H37Rv | MIC | Mycobacterium tuberculosis | culture |  |  |  | 100 µg/mL
Cc1cc(C)nc(/N=C(\N)Nc2ccc(S(=O)(=O)NC(=O)Nc3ccccc3)cc2)n1 |  | H37Rv | MIC bound | Mycobacterium tuberculosis | culture |  |  | BACTEC | >12.5 µg/mL
Fc1ccc(N2CCCCC2)c(NC(=S)c2ccncc2)c1 | 10 µM |  | inhibition |  | host protein |  | MST2 | kinase activity | 13%
Cc1ccc(C)n1-c1ccc([As](=O)(O)O)cc1 |  | H37Rv | MIC | Mycobacterium tuberculosis | culture |  |  |  | >100 µg/mL

Repeating the final 6 entries:

structure	dose	strain or isolate	measure	organism	test	cell line	target	method	result
CC(=O)ONC(=O)CSc1nn2cc(-c3ccccc3)nc2s1		H37Rv	MIC bound	Mycobacterium tuberculosis	culture			BACTEC	>12.5 µg/mL
c1ccc(C2CCN(c3cncc(-c4csc5ccccc45)n3)CC2)cc1	10 µM		inhibition	Cytomegalovirus	target		UL97 kinase		>15%
Nc1cc([N+](=O)[O-])ccc1C(=O)O		H37Rv	MIC	Mycobacterium tuberculosis	culture				100 µg/mL
Cc1cc(C)nc(/N=C(\N)Nc2ccc(S(=O)(=O)NC(=O)Nc3ccccc3)cc2)n1		H37Rv	MIC bound	Mycobacterium tuberculosis	culture			BACTEC	>12.5 µg/mL
Fc1ccc(N2CCCCC2)c(NC(=S)c2ccncc2)c1	10 µM		inhibition		host protein		MST2	kinase activity	13%
Cc1ccc(C)n1-c1ccc([As](=O)(O)O)cc1		H37Rv	MIC	Mycobacterium tuberculosis	culture				>100 µg/mL

MIC50, MIC90 and the like: level of inhibition, or share of isolates inhibited. ICn: concentration for n% inhibition. ECn is the concentration giving n% inhibition of infection, replication or growth. Percent inhibition refers to the dose given; in toxicity tests it is the harm to the cells. An empty or dashed field is not shown. Rows are shuffled and stem from different studies.